Experimental data published in PubChem BioAssay AID720641 (ICCB-Longwood Screening Facility, Harvard Medical School, 2013).
Only a part is listed here, and it is no random draw. Activity calls are given as the source filed them.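 Rule for the calls: active = relative growth at most 50% at the other temperature and 20+ points below 30 °C, or under 10% at both; inactive = the rest, inconclusive results apart.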

Experiment: S. aureus growth inhibition at 42 and 30 °C, primary screen, LtaS inhibitor project, RN4220, two temperatures (AID 720641)
Conditions: OD600, 20 h, 42 °C, hits give low values

Compound | relative growth
CN(C)P1(=O)Nc2ccccc2S1 (stereo unspecified) | active: 1.43%
